# From paper PMC8420505, “Identification of lectin receptors for conserved SARS‐CoV‐2 glycosylation sites” (2021)
# Key:
# [1] = target: stabilized full‐length trimeric pre‐fusion SARS‐CoV‐2 Spike protein (Spike‐H6) (SARS‐CoV‐2) (UniProt P0DTC2); experiment: single-molecule force spectroscopy (AFM)
# [2] = target: stabilized full‐length trimeric pre‐fusion SARS‐CoV‐2 Spike protein (Spike‐H6) (SARS‐CoV‐2) (UniProt P0DTC2); experiment: SPR
# [3] = target: stabilized full‐length trimeric pre‐fusion SARS‐CoV‐2 Spike protein (Spike‐H6) (SARS‐CoV‐2) (UniProt P0DTC2); experiment: high-speed AFM
Substance,koff [1] [s⁻¹],"Kd,1 (first binding step, bivalent analyte model) [2] [nM]","ka,1 (first binding step, bivalent analyte model) [2] [M⁻¹ s⁻¹]","kd,1 (first binding step, bivalent analyte model) [2] [s⁻¹]",stoichiometry N (lectin molecules per Spike trimer) [3]
human CLEC4G‐hIgG1 Fc‐fusion protein (from UniProt Q6UXB4) (Fc fusion),0.007,–,–,–,–
mouse Clec4g carbohydrate recognition domain - mouse IgG2a‐Fc fusion protein (from UniProt Q8BNX1 1-294),0.037,1620,61700,0.0997,3.2
mouse CD209c carbohydrate recognition domain - mouse IgG2a‐Fc fusion protein (from UniProt Q91ZW9 1-178),0.041,988,16100,0.0159,5.2
